{"source": "patent US20150104459A1", "about": "“Compositions and Methods for the Therapy and Diagnosis of Influenza” (published 2015)", "binders": {"B1": {"name": "TCN-032 (8I10) (antibody, V domains shown)", "VH": "QVQLQESGPGLVKPSETLSLTCTVSGSSISNYYWSWIRQSPGKGLEWIGFIYYGGNTKYNPSLKSRVTISQDTSKSQVSLTMSSVTAAESAVYFCARASCSGGYCILDYWGQGTLVTVS", "VL": "DIQMTQSPSSLSASVGDRVTITCRASQNIYKYLNWYQQRPGKAPKGLISAASGLQSGVPSRFSGSGSGTDFTLTITSLQPEDFATYYCQQSYSPPLTFGGGTRVEIK"}}, "target": "M2 protein of influenza A/Solomon Islands/3/06 (H1N1), on inactivated whole virions (influenza A virus A/Solomon …)", "assay": "ELISA, positive control antibody on inactivated whole virions"}
{"binder": "B1", "values": [{"measurement": "ELISA virus binding (OD450)", "value": 3.61, "unit": "OD450"}]}
